Compound potency records, mixed from different reports. Data source: NIAID ChemDB in PubChem.

Common to all: target-level tests

Percent inhibition refers to the dose given; in toxicity tests it is the harm to the cells.

O=S(=O)(c1cccc2cnccc12)N1CCNCC1 ; target: Protein kinase C ; dose: 20 µg/mL ; method: nucleotide incorporation ; read-out: inhibition ; result: 39.1%
O=S(=O)(c1cccc2cnccc12)N1CCNCC1 ; target: Protein kinase C ; dose: 4 µg/mL ; method: nucleotide incorporation ; read-out: inhibition ; result: 40.5%
O=C(O)Cc1cc(O)ccc1O ; target: CD4 ; dose: 20 µg/mL ; method: flow cytometry ; read-out: inhibition ; result: 91%
O=C(O[C@@H]1Cc2c(O)cc(O)cc2O[C@@H]1c1cc(O)c(O)c(O)c1-c1c([C@H]2Oc3cc(O)cc(O)c3C[C@H]2OC(=O)c2cc(O)c(O)c(O)c2)cc(O)c(O)c1O)c1cc(O)c(O)c(O)c1 ; target: CXCR4 ; dose: 20 µM ; method: ELISA ; read-out: inhibition ; result: 2%
Cn1c2ccccc2c(=O)c2c(O)cccc21 ; target: Protein kinase C ; dose: 100 µg/mL ; method: nucleotide incorporation ; read-out: inhibition ; result: 77.8 ± 12%
O=C(O[C@@H]1Cc2c(O)cc(O)cc2O[C@@H]1c1cc(O)c(O)c(O)c1)c1cc(O)c(O)c(O)c1 ; target: CXCR4 ; method: ELISA ; read-out: IC50 ; result: >20 µM
Clc1cc(CN2CCCNCCNCCCNCC2)cc(Cl)n1 ; target: CXCR4 ; mutations: CXCR4-H281A ; read-out: IC50 ; result: 2.77 µM
CC(=O)CC1(O)c2c3[nH]c4ccccc4c3cc[n+]2C2C=CC=CC21 ; target: p56lck tyrosine kinase ; dose: 600 µM ; method: ELISA ; read-out: inhibition ; result: 92%
O=C(O)CCc1ccc(O)c(O)c1 ; target: CD4 ; dose: 20 µg/mL ; method: flow cytometry ; read-out: inhibition ; result: 11%
C=CCN(C(=O)OCc1ccccc1)C1CCN(CCC(C)(c2ccccc2)C2Nc3ccccc3S(=O)(=O)N2)CC1 ; target: CXCR4 ; read-out: IC50 ; result: >1 µM
O=C(O)c1cc(O)c(O)c(O)c1 ; target: CD4 ; dose: 100 µg/mL ; method: flow cytometry ; read-out: inhibition ; result: 11%
Cn1c2ccccc2c(=O)c2c(O)cccc21 ; target: Protein kinase C ; dose: 4 µg/mL ; method: nucleotide incorporation ; read-out: inhibition ; result: 51.7%
Oc1cccc(O)c1O ; target: CD4 ; dose: 20 µg/mL ; method: flow cytometry ; read-out: inhibition ; result: 76%
O=C(Oc1cc(O)cc2c1C[C@@H](OC(=O)c1cc(O)c(O)c(O)c1)[C@@H](c1cc(O)c(O)c(O)c1)O2)c1cc(O)c(O)c(O)c1 ; target: CXCR4 ; dose: 20 µM ; method: ELISA ; read-out: inhibition ; result: 1%
O=C(O)Cc1ccc(O)c(O)c1 ; target: CD4 ; method: flow cytometry ; read-out: IC50 ; result: 2 µM
C[C@@H]1CN(C(=O)c2ccccc2)CCN1C(=O)C(=O)c1c[nH]c2ccccc12 ; target: gp120 ; method: radiometric ; read-out: IC50 ; result: ~60 µM

ICn is the concentration giving n% inhibition. Lines come from different laboratories, so protocols vary.